One may read the Kd as a measure of binding affinity in units of concentration. A low value points to a tighter complex.

This note sets out measurements from patent publication US20050191296A1 (YISSUM RESEARCH DEVELOPMENT COMPANY OF THE HEBREW …, published 2005).

Assay [1] addresses staphylococcal enterotoxin B (Staphylococcus aureus) (UniProt P01552). Put plainly: SPR (BIAcore), SEB immobilized, sB7-2 as analyte.
Assay [2] has as its target staphylococcal enterotoxin B (Staphylococcus aureus, UniProt P01552 28-266). Put plainly: SPR (BIAcore), SEB immobilized, soluble receptor-Fc as analyte. A general note: In SPR one partner is held on a chip, and binding of the other changes the refractive index at the surface.

On to “soluble B7-2 (B7-2-Fc, R&D Systems catalogue no. 141-B2) (from UniProt P42081 20-239) (Fc fusion)”, for which, in assay [1], the Kd was found to be 25 nM.

B1: soluble ICOS (ICOS-Fc, R&D Systems) (Fc fusion)
chain: EINGSANYEMFIFHNGGVQILCKYPDIVQQFKMQLLKGGQILCDLTKTKGSGNTVSIKSLKFCHSQLSNNSVSFFLYNLDHSHANYYFCNLSIFDPPPFKVTLTGGYLHIYESQLCCQLKF
As for B1, the Kd in assay [2] amounted to 21 nM.
